Assay results reported in PMC12274840 (The Journal of Biological Chemistry, 2025).

Assay type: physicochemical
Conditions: compared to wild-type counterpart

BlaC I105R
ΔTm: +1 °C
